Experimental data taken from US5457101A (priority 1994, dated 1995).

System: 5-HT-2 receptor
Test: H-spiperone displacement from binding sites in rat frontal cortex (Peroutka and Snyder)
Conditions: greatest activity at the 5-HT-2 receptor

Cc1cc2c(s1)Nc1ccccc1N=C2N1CCN(C)CC1 [2-methyl-4-(4-methyl-1-piperazinyl)-10H-thieno-[2,3-b][1,5]benzodiazepine]
concentration displacing H-spiperone from binding sites: low nanomolar concentrations
